Measured values from several laboratories, pooled; numbers as filed in NIAID ChemDB.

All rows: toxicity to cultured cells; cells: HepG2; endpoint: CC50

Blank or dashed fields: not listed here. CCn: concentration that lowers growth or viability of the cells by n%. Two numbers with a dash give a range or band. Rows are shuffled and stem from different studies.

smiles	read by	result
Cc1cc(NC(=O)c2c(C)c(C(=O)C(=O)NC3CCC(O)CC3)n(C)c2C(C)C)ccc1F	MTT	>30 µM
CC[C@H]1OC(=O)[C@H](C)[C@@H](O[C@H]2C[C@@](C)(OC)[C@@H](O)[C@H](C)O2)[C@H](C)[C@@H](O[C@@H]2O[C@H](C)C[C@H](N(C)C)[C@H]2OCCCNc2ccnc3ccccc23)[C@](C)(O)C[C@@H](C)CN(C)[C@H](C)[C@@H](O)[C@]1(C)O	MTS	80 µM
Cc1cc(NC(=O)c2c(C)c(C(=O)C(=O)NC3(CO)CCN(C(=O)c4cn(C)nc4C(F)F)CC3)n(C)c2C)ccc1F	MTT	>30 µM
c1cncc(-c2noc(C3CCN(c4ccc5cc(-c6ccncc6)ccc5n4)CC3)n2)c1	MTS	>100 µM
CCc1ccccc1NC(=O)c1c(NC(=O)c2cccc(Cl)c2)sc2c1CCC2	luminescence	>25 µM
CCOC(=O)[C@H](C)NP(=O)(OC[C@@H]1OC[C@H](n2cnc3c(NC(C)=O)nc(N)nc32)O1)Oc1ccccc1	MTS	>100 µM
O=C(CSc1ccccn1)Nc1ccc(F)c(F)c1	luminescence	>100 µM
CC[C@H]1OC(=O)[C@H](C)[C@@H](O[C@H]2C[C@@](C)(OC)[C@@H](O)[C@H](C)O2)[C@H](C)[C@@H](O[C@@H]2O[C@H](C)C[C@H](N(C)C)[C@H]2OCCCNc2ccnc3cc(Cl)ccc23)[C@](C)(O)C[C@@H](C)CN(C)[C@H](C)[C@@H](O)[C@]1(C)O	MTS	45 µM
COc1cccc2ccc(N3CCC(c4nc(-c5ccc(OC(F)(F)F)cc5)no4)CC3)nc12	MTS	>100 µM
CCCC(=O)Nc1nc(N)nc2c1ncn2[C@H]1CO[C@@H](COP(=O)(N[C@@H](C)C(=O)OCC)Oc2ccccc2)O1	MTS	>100 µM
Nc1c(C(=O)Cc2ccccc2)sc2ccc(Cc3ccccc3)c(-c3ccc(F)cc3)c12	luminescence	>100 µM
CC[C@H]1OC(=O)[C@H](C)[C@@H](O)[C@H](C)[C@@H](O[C@@H]2O[C@H](C)C[C@H](N(C)C)[C@H]2OCCCN(C)Cc2cnc3ccccc3c2)[C@](C)(O)C[C@@H](C)CN(C)[C@H](C)[C@@H](O)[C@]1(C)O	MTS	>100 µM
CCCCCCCC(=O)Nc1nc(N)nc2c1ncn2[C@H]1CO[C@@H](COP(=O)(N[C@@H](C)C(=O)OCC)Oc2ccccc2)O1	MTS	9.5 µM
CC[C@H]1OC(=O)[C@H](C)[C@@H](O[C@H]2C[C@@](C)(OC)[C@@H](O)[C@H](C)O2)[C@H](C)[C@@H](O[C@@H]2O[C@H](C)C[C@H](N(C)C)[C@H]2OCCCNC(=O)CNc2ccnc3ccccc23)[C@](C)(O)C[C@@H](C)CN(C)[C@H](C)[C@@H](O)[C@]1(C)O	MTS	>100 µM
O=C(COc1ccc2ccccc2c1)Nc1ccncc1	luminescence	61 µM
COc1cc(OC)cc(-c2noc(C3CCN(c4ccc5cccc(OC)c5n4)CC3)n2)c1	MTS	>100 µM
NCCOc1ccc2ccc(=O)n(CCN[C@H]3CC[C@H]4[C@@H](C3)OC(=O)N4c3ccc4c(n3)NC(=O)CO4)c2n1	luminescence	>100 µg/mL
Cc1cc(NC(=O)c2c(C)c(C(=O)C(=O)NC3CCC(O)CC3)n(C)c2-c2ccncc2)ccc1F	MTT	>30 µM
CC[C@H]1OC(=O)[C@H](C)[C@@H](O)[C@H](C)[C@@H](O[C@@H]2O[C@H](C)C[C@H](N(C)C)[C@H]2OCCCNC(=O)CCCNc2ccnc3cc(Cl)ccc23)[C@](C)(O)C[C@@H](C)CN(C)[C@H](C)[C@@H](O)[C@]1(C)O	MTS	75 µM
Cc1c(C(=O)Nc2cc(Cl)cc(Cl)c2)c(C)n(C)c1C(=O)C(=O)N[C@H](C)C(F)(F)F	MTT	5–30 µM
O=C1C(=O)c2ccccc2C(O)=C1C1CCC(c2ccc(Cl)cc2)CC1		>10 µM
O=[N+]([O-])c1ccc(OCc2nn3c(-c4ccc(Cl)cc4)nnc3s2)cc1	resazurin	10.95 µM
CC[C@H]1OC(=O)[C@H](C)[C@@H](O[C@H]2C[C@@](C)(OC)[C@@H](O)[C@H](C)O2)[C@H](C)[C@@H](O[C@@H]2O[C@H](C)C[C@H](N(C)C)[C@H]2OCCCNCc2ccc3ccccc3n2)[C@](C)(O)C[C@@H](C)CN(C)[C@H](C)[C@@H](O)[C@]1(C)O	MTS	30 µM
Fc1ccc(-c2nnc3sc(COc4ccccc4)nn23)cc1	resazurin	15.19 µM
Cc1cc(NC(=O)c2c(C)c(C(=O)C(=O)NC3(C)CCC(O)CC3)n(C)c2C2CCCC2)ccc1F	MTT	>30 µM
NCCCOc1ccc2ccc(=O)n(CCN[C@H]3CC[C@H]4[C@@H](C3)OC(=O)N4c3ccc4c(n3)NC(=O)CO4)c2n1	luminescence	>100 µg/mL
COc1ccc(OCc2nn3c(-c4ccc(Br)cc4)nnc3s2)cc1	resazurin	50.17 µM
O=C(Nc1ccc(C(F)(F)F)cc1)Nc1cccc(Cl)c1	luminescence	5.5 µM
CCOC(=O)[C@H](C)NP(=O)(OC[C@@H]1OC[C@H](n2cnc3c(N)nc(N)nc32)O1)Oc1ccccc1	MTS	>100 µM
Cc1c(C(=O)Nc2ccc(F)c(Br)c2)c(C)n(C)c1C(=O)C(=O)NC1(C)CCC(O)CC1	MTT	>30 µM
CNC(=O)CCCC(=O)N[C@@H](CC(C)C)C(=O)N[C@@H](CC(C)C)C(=O)NCC(=O)CNC(=O)[C@H](CC(C)C)NC(=O)[C@H](CC(C)C)NC(=O)c1ccc(C(=O)c2ccccc2)cc1		>10 µM
Cc1cc(NC(=O)c2c(C)c(C(=O)C(=O)NC3(C)CC(OP(=O)(O)O)C3)n(C)c2C)ccc1F	MTT	>30 µM
NS(=O)(=O)c1ccc(Oc2ccc3ccc(=O)n(CCN[C@H]4CC[C@@H]5[C@@H](C4)OC(=O)N5c4ccc5c(n4)NC(=O)CO5)c3n2)cc1	luminescence	10–100 µg/mL
Cc1cc(Cl)ccc1OCc1nn2c(-c3ccc(Br)cc3)nnc2s1	resazurin	19.57 µM

A second listing of 5 rows from above:

smiles,read by,result
CC[C@H]1OC(=O)[C@H](C)[C@@H](O[C@H]2C[C@@](C)(OC)[C@@H](O)[C@H](C)O2)[C@H](C)[C@@H](O[C@@H]2O[C@H](C)C[C@H](N(C)C)[C@H]2OCCCNc2ccnc3cc(Cl)ccc23)[C@](C)(O)C[C@@H](C)CN(C)[C@H](C)[C@@H](O)[C@]1(C)O,MTS,45 µM
NS(=O)(=O)c1ccc(Oc2ccc3ccc(=O)n(CCN[C@H]4CC[C@@H]5[C@@H](C4)OC(=O)N5c4ccc5c(n4)NC(=O)CO5)c3n2)cc1,luminescence,10–100 µg/mL
COc1cc(OC)cc(-c2noc(C3CCN(c4ccc5cccc(OC)c5n4)CC3)n2)c1,MTS,>100 µM
CC[C@H]1OC(=O)[C@H](C)[C@@H](O)[C@H](C)[C@@H](O[C@@H]2O[C@H](C)C[C@H](N(C)C)[C@H]2OCCCNC(=O)CCCNc2ccnc3cc(Cl)ccc23)[C@](C)(O)C[C@@H](C)CN(C)[C@H](C)[C@@H](O)[C@]1(C)O,MTS,75 µM
Cc1cc(NC(=O)c2c(C)c(C(=O)C(=O)NC3(C)CC(OP(=O)(O)O)C3)n(C)c2C)ccc1F,MTT,>30 µM